Construct, isoform or probe ends are uncertain for at least one entry. At least one verdict was read from the data and is not stated in words by the source.
Key:
[1] = target: WhiB6 (apo, oxidized (S)2) (Mycobacterium tuberculosis) (UniProt P9WF37); assay: SERS
[2] = target: WhiB6 (apo, oxidized (S)2) (Mycobacterium tuberculosis) (UniProt P9WF37); assay: far-UV CD; conditions: no MgCl2

The chains behind the UniProt entries cited, without tags or fusion partners. Where a name states a change or a piece, a line headed by the entry shows the natural chain unless it says otherwise.
UniProt P9WF37: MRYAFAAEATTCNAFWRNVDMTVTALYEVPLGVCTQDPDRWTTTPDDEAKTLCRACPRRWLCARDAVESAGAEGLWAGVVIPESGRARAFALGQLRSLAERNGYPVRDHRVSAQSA

Q: Which results are given for “TGCCGTCTTCACGAACTCAAAACTGACGATCTGCTTAGCATGAAAAAAACTGTTGACATCGGCCAAGCATGACAGCCAGACTGTAGGCCC (double strand) [espA promoter DNA, 90 bp]”?
A: binding result [1]: binds; binding result [2]: binds

Reference: publication doi:10.1101/2023.03.01.530725
